Anti-infective test results gathered from many reports (values: NIAID ChemDB through PubChem).

Shared fields: whole-cell or culture tests; agent: Plasmodium falciparum

Rows are shuffled and stem from different studies.

smiles,strain,changes,measure,read by,cells,value
CCOC(=O)c1cn(Cc2ccc(F)cc2)c2ccc3nc(-c4ccccc4)c(-c4ccccc4)nc3c2c1=O,3D7,,EC50,fluorescence,,6.94 µM
C[C@H]1[C@@H](OC(=O)CCC(=O)O)O[C@@H]2O[C@@]3(C)CC[C@H]4[C@H](C)CC[C@@H]1[C@@]24OO3,NF54,,EC50,,,0.004 µM
CC[C@H](CC[C@@H](C)[C@H]1CC[C@H]2[C@@H]3CC=C4C[C@@H](O)CC[C@]4(C)[C@H]3CC[C@]12C)C(C)C,D10,,EC50,LDH,,>200 µM
CC(C)c1ccc(C2OOC(c3ccc(C=O)cc3)OO2)cc1,D6,,EC50,LDH,,6.99 µM
Cc1cccc2c(Nc3ccc(S(N)(=O)=O)cc3)c3ccc([N+](=O)[O-])cc3nc12,3D7,,EC50,flow cytometry,Erythrocytes,>13.7 µM
COc1cc(OC)c(C=C2SC(=O)N(Cc3ccccc3)C2=O)c(OC)c1,W2,Chloroquine-resistant,EC50,fluorescence,,>10 µM
CCN(CC)CCCC(C)Nc1ccnc2cc(Cl)ccc12,NF54,,EC50,LDH,,0.0138 µM
COc1cc(OC)c(C=C2SC(=O)N(CC(=O)N3CCN(c4ccncc4)CC3)C2=O)c(OC)c1,W2,Chloroquine-resistant,EC50,fluorescence,,1.6 µM
c1ccc(-c2ccccc2OCCCCN2CCCCC2)cc1,3D7,,EC50,flow cytometry,Erythrocytes,>13.5 µM
CCN(CCO)CCCC(C)Nc1ccnc2cc(Cl)ccc12,3D7,,EC50,,,0.02 µg/mL
OC(COc1ccc(OCc2ccccc2)cc1)CN1CCCCC1,K1,,EC50,flow cytometry,Erythrocytes,6.16 µM
COc1ccc(C=C2SC(=O)N(CC(=O)N3CCN(c4ccccc4)CC3)C2=O)c(OC)c1,W2,Chloroquine-resistant,EC50,fluorescence,,4.65 µM
COc1ccc(Cc2c3cc(OC)c(OC)cc3cc[n+]2C)cc1OC,3D7,,EC50,flow cytometry,Erythrocytes,>17.1 µM
O=C(CN1C(=O)SC(=Cc2ccc(Cl)cc2)C1=O)N1CCN(c2ccccc2)CC1,W2,Chloroquine-resistant,EC50,fluorescence,,>10 µM
O=C(CC1NCCC[C@@H]1O)Cn1cnc2c(c1=O)CCCCC2,K1,,EC50,LDH / absorbance,Human A+ erythrocytes,0.0452 µg/mL
CC1CCN(CCCCOc2ccc(C(=O)c3ccccc3)cc2)CC1,3D7,,EC50,flow cytometry,Erythrocytes,>14.8 µM
COc1ccc(NC(=O)C2C(C(=O)O)[C@@H]3CC[C@H]2O3)cc1,D6,,EC50,,,>500 µM
O=C(C[C@H]1NCCC[C@@H]1O)Cn1cnc2cc(Br)c(Cl)cc2c1=O,,,EC50,luciferase,HepG2,0.0078 µM
C[C@@H]1CC[C@H]2[C@@H](C)C(=O)O[C@@H]3OC4(C)CC[C@@H]1[C@]32OO4,Dd2 (EF1),Multidrug-resistant,EC50,SYBR Green / fluorescence,,0.0209 µM
O=C(CN1C(=O)SC(=Cc2ccccc2OC(F)(F)F)C1=O)N1CCN(c2ccccc2)CC1,W2,Chloroquine-resistant,EC50,fluorescence,,>10 µM
CCOC(=O)c1cn(Cc2ccc(F)cc2)c2ccc3nc(-c4ccc(F)cc4)c(-c4ccc(F)cc4)nc3c2c1=O,3D7,,EC50,fluorescence,,7.59 µM
c1ccc(Cc2ccccc2OCCCCn2cccc2)cc1,3D7,,EC50,flow cytometry,Erythrocytes,8.151 µM
COc1cc(OC)c(C=C2SC(=O)N(Cc3ccc(C)cc3)C2=O)c(OC)c1,W2,Chloroquine-resistant,EC50,fluorescence,,8.88 µM
CCN(CC)CCCC(C)Nc1ccnc2cc(Cl)ccc12,FCR3,,EC50,LDH / absorbance,Human A+ erythrocytes,0.0475 µg/mL
C=C(C)C1CC[C@]2(C(=O)O)CC[C@@]3(C)[C@]4(C)CC[C@H]5C(C)(C)[C@@H](O)CC[C@]5(C)[C@H]4CC[C@]3(C)[C@@H]12,D10,,EC50,LDH,,>200 µM
COc1cc(OC)c(C=C2SC(=O)N(CC(=O)O)C2=O)c(OC)c1,W2,Chloroquine-resistant,EC50,fluorescence,,>10 µM
O[C@H](c1cc(C(F)(F)F)nc2c(C(F)(F)F)cccc12)[C@@H]1CCCCN1,FCM29,,EC50,broth dilution / radiometric,human red blood cells,0.0156 µM
O=c1c2ccccc2ncn1CCCC1NCCCC[C@@H]1O,FCR3,,EC50,LDH / absorbance,Human A+ erythrocytes,0.545 µg/mL
COc1cc(OC)c(C=C2SC(=O)N(CC(=O)N3CCN(c4ccc(C#N)cc4)CC3)C2=O)c(OC)c1,W2,Chloroquine-resistant,EC50,fluorescence,,3.97 µM
C=CCOc1ccc(CNC(C)C(O)c2ccccc2)cc1,K1,,EC50,flow cytometry,Erythrocytes,>12 µM
O=c1c2ccccc2ncn1CCCC1NCCC[C@@H]1O,FCR3,,EC50,LDH / absorbance,Human A+ erythrocytes,0.0225 µg/mL
COc1cc(OC)c(C=C2SC(=O)NC2=O)c(OC)c1,W2,Chloroquine-resistant,EC50,fluorescence,,>10 µM
CC(C)CN(NC(=O)C1CCC2(CC1)OOC1(OO2)C2CC3CC(C2)CC1C3)c1nc(C#N)ncc1Br,W2,,MIC,flow cytometry,,8 µM
COc1ccc(Nc2cc(C)nc3c2ccc2ccccc23)cc1OC,K1,,EC50,flow cytometry,Erythrocytes,>10.4 µM
CCN(CC)CCCC(C)Nc1ccnc2cc(Cl)ccc12,K1,,EC50,LDH,Erythrocyte,0.184 µg/mL
C[C@H]1[C@@H](OC(=O)CCC(=O)O)O[C@@H]2O[C@@]3(C)CC[C@H]4[C@H](C)CC[C@@H]1[C@@]24OO3,W2,,EC50,broth dilution / radiometric,human red blood cells,0.003 µM

For reference, 2 entries again:

smiles,strain,changes,measure,read by,cells,value
O=C(CC1NCCC[C@@H]1O)Cn1cnc2c(c1=O)CCCCC2,K1,,EC50,LDH / absorbance,Human A+ erythrocytes,0.0452 µg/mL
CCOC(=O)c1cn(Cc2ccc(F)cc2)c2ccc3nc(-c4ccccc4)c(-c4ccccc4)nc3c2c1=O,3D7,,EC50,fluorescence,,6.94 µM

ECn: concentration that inhibits the pathogen or its effect by n%. Blank or dashed fields: not listed here.